Experimental data reported in publication PMC6609384, “Pharmacokinetics of cucurbitacin B from Trichosanthes cucumerina L. in rats” (BMC Complementary and Alternative Medicine, 2019).

Test: Animal tolerability: general appearance and blood chemistry (AST, ALT, creatinine)
Format: in vivo, male Wistar rats
Conditions: for General appearance / ALT / AST / Creatinine: post-dosing (24 h); for ALT / AST / Creatinine: plasma
Method: Liver and kidney function were assessed prior to the pharmacokinetic experiment. Biochemical markers for aspartate aminotransferase (AST), alanine aminotransferase (ALT), and creatinine were used to determine these functions. Plasma was collected before and 24 h after cucurbitacin B administration. Measurement of these markers was conducted by Professional Laboratory Management Corporation (Bangkok, Thailand). AST and ALT were quantified by kinetic method according to IFCC recommendations, whereas creatinine level in plasma was measured by using Cobas 6000 automated analyzer in enzymatic method (chemiluminescence).
Biochemical markers including AST, ALT, and creatinine were presented as mean ± standard deviation (SD). Comparison of these markers between pre- and post-treatment groups was conducted by paired sample t-test in which statistical difference was decided at p-value < 0.05. Cucurbitacin B plasma levels obtained from LC-MS/MS analysis were further analyzed by constructing the curve between the calculated concentrations (μg/L) and blood sampling time points (h). Cucurbitacin B plasma concentrations in the plasma concentration-time curve were reported as mean ± SD. Pharmacokinetic parameters were computed by PK solutions 2.0 software (Montrose, United States) with non-compartmental analysis. The pharmacokinetic parameters were listed as follows: maximum plasma concentration (Cmax), time to maximum plasma concentration (Tmax), area under the curve from time zero to last sampling time point (AUC0-t), area under the curve from time zero to infinity (AUC0-inf), absolute oral bioavailability (F), elimination half-life (t1/2), volume of distribution (Vd), clearance (CL), and mean residence time (MRT). Absolute oral bioavailability was calculated according to the following equation: %F=AUC0−infafter oral administration/AUC0−infafterIVadministration×IVdose/oral dose×100

Substance: Cucurbitacin B
- General appearance (0.1 mg/kg IV): Normal
- ALT (0.1 mg/kg IV): 11.00 ± 3.94 U/L
- AST (0.1 mg/kg IV): 49.20 ± 3.27 U/L
- Creatinine (0.1 mg/kg IV): 0.23 ± 0.02 mg/dL
- General appearance (2 mg/kg PO): Normal
- ALT (2 mg/kg PO): 6.33 ± 1.53 U/L
- AST (2 mg/kg PO): 32.33 ± 11.68 U/L
- Creatinine (2 mg/kg PO): 0.19 ± 0.03 mg/dL
- General appearance (4 mg/kg PO): Normal
- ALT (4 mg/kg PO): 12.25 ± 5.62 U/L
- AST (4 mg/kg PO): 50.25 ± 0.96 U/L
- Creatinine (4 mg/kg PO): 0.22 ± 0.03 mg/dL
- tolerability (all animals, 24 h after administration): good tolerability
- observed adverse sign (high dose administered group): soft stool in some animals
